PubChem BioAssay AID1259414, Drosophila RNAi Screening Center, 2018
The screen tested about 24,000 reagents; shown is an unselected part of those with a known target gene and a result. In the full data, about 1,210 (5%) were called active. 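Inactive calls also include excluded dsRNAs with several or no targets, genes unexpressed in JW18, and well A1, regardless of score.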 A number with no mark means an inactive call. Names joined by + are all predicted targets of the reagent.

- Test: 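Genome-wide screen for host control of endosymbiont load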 (primary screen)
- System: Drosophila JW18 cells infected with Wolbachia
- Reagents: long dsRNA against Drosophila genes, 0.25 µg dsRNA per well of a 384-well plate
- Time to read-out: 5 days
- Challenge: cells persistently infected with Wolbachia before knock-down; no added drug
- Detection: 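Imaged fluorescence in situ signal for Wolbachia 23S rRNA per DAPI-counted host cell, given as a robust z-score within each plate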
- Reading the numbers: Wolbachia per cell robust z: higher = more Wolbachia per host cell than the plate typical
- Call rule: 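Active if absolute robust z reaches 1.5 in two or more of three replicates, leaving out multi- or no-target dsRNAs, genes unexpressed in JW18 and A1 wells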

predicted target	dsRNA	Wolbachia per cell robust z, rep 1	Wolbachia per cell robust z, rep 2	Wolbachia per cell robust z, rep 3
CG5849	DRSC15893	-0.258	-0.95	-0.717
Dad1	DRSC02263	0.554	-0.103	-1.63
CG13937	DRSC08406	0.562	-0.724	-0.85
Itgbn	DRSC03493	-1.05	-0.561	-0.119
TrpA1	DRSC10544	-3.26	0.786	0.722
mura	DRSC23145	1.32	1.38	1.43
mura	DRSC26645	-4.19 (active)	-2.66	-0.627
Vps52	DRSC03050	1.14	0.926	0.408
Elal	DRSC16662	-0.8	1.17	-2.69
UQCR-C1	DRSC15508	0.806 (active)	1.71	2.72
dpr19	DRSC02237	0.385 (active)	-1.54	-2.1
spdo	DRSC13988	0.0291	-0.72	0.11
spdo	DRSC24230	0.922	0.871	-0.327
CG3819	DRSC10378	-0.0044	0.4	1.08
CG3819	DRSC27675	0.208	-0.314	0.293
Obp58b	DRSC04161	-1.03 (active)	-2.77	-3.4
CG46385	DRSC06557	0.93	0.0863	-1.38
CG46385	DRSC25794	-1.14	-0.723	-0.883
Pisd	DRSC15935	-0.107	0.173	0.393
lectin-21Cb	DRSC00355	-0.0891	-2.72	-2.69
rush	DRSC18568	0.271	-0.485	-0.518
Atg8b	DRSC14501	-1.5	-0.0656	0.104
Atg8b	DRSC24428	-0.832	-6.98	-0.678
mfrn	DRSC15687	1.53	0.639	-0.285
CG8870	DRSC16452	-4.28	0.0814	0.966
CG13603	DRSC14606	-0.126	-0.0876	1.19
CG31287	DRSC13138	0.697	0.917	0.236
Noc2	DRSC03165	0.36	0.653	0.495
CG31741	DRSC02887	-0.0712	-4.5	-0.889
CG31064	DRSC14756	0.293 (active)	-2.55	-2.99
CG31064	DRSC15941	1.35	1.16	0.883
CG31064	DRSC15942	1.13	0.644	-0.898
CG31064	DRSC15943	-0.492	0.712	-1.63
CG30284	DRSC22150	-0.618	-0.629	-0.284

An excerpt from above, reduced to “Wolbachia per cell robust z, rep 3”:
mfrn [DRSC15687] = -0.285
CG8870 [DRSC16452] = 0.966
CG13603 [DRSC14606] = 1.19
CG31287 [DRSC13138] = 0.236

Continued.
predicted target	dsRNA	Wolbachia per cell robust z, rep 1	Wolbachia per cell robust z, rep 2	Wolbachia per cell robust z, rep 3
RpS5b	DRSC16173	-0.586	-0.353	0.843
CG17118	DRSC02579	1.23	0.672	-0.432
InR	DRSC16717	0.658	-1.75	-0.268
InR	DRSC36685	-2.28	-4.92	-2.08
asRNA:CR42547 + CG15674	DRSC04264	0.152	-0.538	-0.585
ry	DRSC17048	0.72	0.761	-0.151
ry	DRSC27399	-0.238	-5.09	-0.815
Vmat + CG13330	DRSC06365	-0.645	-0.154	-0.303
CG10761	DRSC17753	0.111	0.495	-0.661
CG10761	DRSC27665	0.259	-1.88	-0.135
CG9084	DRSC07335	0.0441	-3.99	-2.62
ChLD3	DRSC02640	-1.21	0.384	-0.383
ppk26	DRSC10991	-1.35	-0.893	-0.0647
ppk26	DRSC25876	-0.38	-0.0765	0.0863
CG12121	DRSC17816	-1.59 (active)	-0.307	-1.93
alpha4GT2	DRSC15905	-0.0407	-0.585	-0.498
robo3	DRSC00374	1.31	0.996	0.27
robo3	DRSC00684	0.158	0.487	0.186
Cyp6t2Psi	DRSC01840	-0.17	0.0205	-0.285
Cyp6t2Psi	DRSC29500	-1.05	0.287	-7.43
CG5910	DRSC11786	-4.11	0.551	-0.5
viaf	DRSC10326	0.0666	-0.233	-0.661
Rbbp5 + CR6434	DRSC10635	-3.13 (active)	-0.132	-1.97
CG9205	DRSC08642	0.183	-0.206	-8.32
mre11	DRSC03570	-3.3	-0.347	0.51
mre11	DRSC22628	1.27	0.799	0.925
mre11	DRSC26311	0.495	0.397	0.6
CG14490	DRSC06461	-2.27	0.734	-1.77
CG14490	DRSC27641	-0.0858	-2.19	-0.0828
CG3349	DRSC10359	-1.56	-0.673	-0.374
CG31689	DRSC24715	-0.265	-0.11	-0.395
MICU1	DRSC02752	0.131	-0.135	-0.444
Vps45	DRSC16398	0.297	-0.124	-4.56
CG4815	DRSC15653	2.3	-0.236	-0.477
